{"source": "paper PMC12133307", "about": "“Structure, kinetics, and mechanism of Pseudomonas putida sulfoquinovose dehydrogenase, the first enzyme in the sulfoglycolytic Entner-Doudoroff pathway” (Biochemical Journal, 2025)", "system": "NC(=O)c1ccc[n+]([C@@H]2O[C@H](COP(=O)(O)OP(=O)(O)OC[C@H]3O[C@@H](n4cnc5c(N)ncnc54)[C@H](O)[C@@H]3O)[C@@H](O)[C@H]2O)c1", "test": "purified protein", "details": "5.0 mM SQ, 50 mM tricine pH 8.5, 150 mM NaCl, binary crystal complex by co-crystallization, varied: cofactor", "data": [{"substance": "PpSQDH (P. putida SQ dehydrogenase; PpSQ1_00090) (Pseudomonas putida)", "values": [{"measurement": "Km", "value": "120 ± 50", "unit": "µM"}, {"measurement": "kcat", "value": 58, "unit": "s⁻¹"}, {"measurement": "kcat/Km", "value": 500000, "unit": "M⁻¹ s⁻¹"}]}]}
